Results of unrelated studies side by side (data: NIAID ChemDB).

Shared fields: tests in culture; organism: Herpes simplex virus 2; measure: EC50

ECn: concentration that inhibits the pathogen or its effect by n%. Lines come from different laboratories, so protocols vary. a–b is a range or a potency band. An empty or dashed field is not shown.

smiles	read by	strain or isolate	cells	result
CCc1cn([C@H]2C[C@H](O)[C@@H](CO)O2)c(=O)[nH]c1=O	cytopathic effect	3345	BHK-21	1 µg/mL
OC[C@H]1O[C@@H](c2cc(Cl)c(F)cc2F)C[C@@H]1O	cytopathic effect	LYONS	E6SM	>400 µg/mL
COC(=O)[C@H](C)NP(=O)(OC[C@H]1C/C1=C/n1cnc2c(=O)[nH]c(N)nc21)Oc1ccccc1	plaque count	-	HFF	39.2 µM
[O-][n+]1onc2ncnc(N3CC[N+]4(CC3)CC[N+]3(CCN(c5ncnc6no[n+]([O-])c56)CC3)CC4)c21	plaque count	P	GMK	10.2 µM
CCCn1c(C)c(C(N)=O)c(=O)c2ccc(-c3ccncc3)cc21	plaque count	-	VERO	>50 µg/mL
CCCCCCCC/C=C/CCCCCCCC(=O)O	cytopathic effect	G	HEL	>100 µM
O=C(C1CCCCC1)N(O)c1ccc(Cl)cc1	cytopathic effect	G	E6SM	>80 µg/mL
Cc1cn([C@@H]2O[C@H](CO)[C@@H](O)[C@@H]2F)c(=O)[nH]c1=O	plaque count	UW-268	HELF	0.004 µg/mL
OC[C@H]1O[C@@H](c2ccc(F)cc2F)C[C@@H]1O	cytopathic effect	G	E6SM	>400 µg/mL
O=c1[nH]c(=O)n([C@@H]2C[C@@H](O)[C@H](CO)O2)cc1I	-	-	-	>100 µM
N#Cc1cc([C@H]2C[C@H](O)[C@@H](CO)O2)c(F)cc1F	cytopathic effect	196	E6SM	>400 µg/mL
Nc1nc(Cl)c2ncn([C@H]3CO[C@@H](CO)C3)c2n1	cytopathic effect	G	E6SM	300 µg/mL
CC(C)(C)[Si](C)(C)O[C@H]1[C@H](n2ccc(=O)[nH]c2=O)O[C@H](CO)C1(O)C(N=[N+]=[N-])C(N)=O	plaque count	-	VERO	>100 µM
CCOC(=O)c1c(Cl)c(-c2ccccc2)n(COCCO)c1C	plaque count	-	VERO	100 µM
NC1=NC2C(C=CN2CC(CO)CCO)C(=O)N1	cytopathic effect	-	VERO	11 µg/mL
O=c1[nH]c(=O)n([C@@H]2O[C@H](CO)[C@@H](O)[C@@H]2O)cc1/C=C/Cl	plaque count	HG-52	HELF	26.6 µg/mL
Nc1ncnc2c1ncn2C=C1CC1CO	cytopathic effect	-	HFF	10.6 µM
O=[N+]([O-])c1cc([C@H]2C[C@H](O)[C@@H](CO)O2)c(F)cc1F	cytopathic effect	196	E6SM	>400 µg/mL
O=c1[nH]c(=O)n([C@H]2C[C@H](O)[C@@H](COP(=O)([O-])OP(=O)([O-])OC[C@@H]3OC(O)[C@H](O)[C@H](O)[C@H]3O)O2)cc1I	cytopathic effect	196	PRK	2 µg/mL
COC(=O)[C@H](C)NP(=O)(OCC1C/C1=C/n1cnc2c(NC3CC3)nc(N)nc21)Oc1ccccc1	cytopathic effect	-	HFF	2.5 µM
Cc1cn(CC=C(CO)CO)c(=O)[nH]c1=O	-	-	-	>100 µg/mL
CC/C=C\C/C=C\C/C=C\C/C=C\C/C=C\CCCC(=O)OC(CO[C@H]1O[C@H](CS(=O)(=O)O)[C@@H](O)[C@H](O)[C@H]1O)OC(=O)CCCCCCCCCCCCCCC	-	-	VERO	12 µg/mL
C/C=C/c1cn([C@H]2C[C@H](O)[C@@H](CO)O2)c(=O)[nH]c1=O	cytopathic effect	3345	BHK-21	16 µg/mL
O=C(CCC1CCCCC1)N(O)c1ccc(Cl)cc1	cytopathic effect	G	E6SM	>16 µg/mL
Nc1nc2c(ncn2[C@H]2CO[C@@H](CO)C2)c(=O)[nH]1	cytopathic effect	G	E6SM	4 µg/mL
O=C(NCc1ccc(Cl)cc1)c1cn2c3c(cc(CN4CCOCC4)cc3c1=O)OC(c1cccnc1)C2	plaque count	L6191429 ACV resistant	HFF	1.6 µM
Nc1ncn([C@H]2CC[C@H](CO)O2)c(=O)n1	-	-	-	>100 µM
CCOC(=O)CC1(O)[C@@H](CO[Si](C)(C)C(C)(C)C)O[C@@H](n2ccc(=O)[nH]c2=O)[C@@H]1O[Si](C)(C)C(C)(C)C	plaque count	-	VERO	>3.4 µM
CC/C=C/c1cn([C@H]2C[C@H](O)[C@@H](CO)O2)c(=O)[nH]c1=O	cytopathic effect	3345	BHK-21	100 µg/mL
Nc1nc(F)nc2c1ncn2[C@@H]1C=C(CO)[C@@H](O)[C@H]1O	cytopathic effect	G	E6SM	≥40 µg/mL
C/C(=C\Cn1ccc(=O)[nH]c1=O)CO	-	-	-	>100 µg/mL
CC(=O)OCCOCn1c(-c2ccccc2)c(N)c(C#N)c1-c1ccccc1	plaque count	-	VERO	>300 µM
Cc1cn([C@@H]2O[C@H](CO)[C@H]2CO)c(=O)[nH]c1=O	plaque count	12247 (TK altered)	HFF	81 µg/mL
OC[C@H]1O[C@H](c2ccc(F)cc2F)C[C@@H]1O	cytopathic effect	196	E6SM	>400 µg/mL
Nc1ccn(C=C2C[C@H]2CO)c(=O)n1	cytopathic effect	-	HFF	104 µM
Nc1nc2c(ncn2[C@@H]2C[C@H](CO)[C@H]2CO)c(=O)[nH]1	plaque count	-	-	0.01–0.1 µM
Nc1nc2c(ncn2CC(CO)OCP(=O)(O)O)c(=O)[nH]1	plaque count	186	WI-38	0.8 µM
CC1(C)[C@@H](CCO)C[C@H]1n1cnc2c(=O)[nH]cnc21	cytopathic effect	G	E6SM	>400 µg/mL
O=c1[nH]c(=O)n([C@H]2C[C@H](O)[C@@H](CO)O2)cc1/C=C/Br	plaque count	UW-268	HELF	15 µg/mL
COC(=O)/C=C1/[C@@H](O[Si](C)(C)C(C)(C)C)[C@H](n2cc(C)c(=O)[nH]c2=O)O[C@@H]1CO[Si](C)(C)C(C)(C)C	plaque count	-	VERO	>35 µM
CCCCCCCCCCCCCC(=O)NC(C)(C)C(=O)N1C[C@@H](O)CC1C(=O)N[C@@H](CC(C)C)C(=O)N[C@H](C(=O)N[C@@H](CCC(N)=O)C(=O)N[C@H](CO)CC(C)C)C(C)C	plaque count	-	VERO	0.28 µM
OC[C@H]1O[C@H](c2cc(I)c(F)cc2F)C[C@@H]1O	cytopathic effect	LYONS	E6SM	>400 µg/mL
CC(C)[C@H](N)C(=O)N[C@H](C(=O)OCC(COC(=O)[C@@H](NC(=O)[C@@H](N)C(C)C)C(C)C)OCn1cnc2c(=O)[nH]c(N)nc21)C(C)C	plaque count	-	HFF	0.34 µM
O=c1[nH]c(=O)n([C@H]2C[C@H](O)[C@@H](CO)O2)cc1/C=C/Br	cytopathic effect	LYONS	PRK	7 µg/mL
CC1(C)[C@@H](CCO)C[C@H]1n1nnc2c(Cl)nc(N)nc21	cytopathic effect	G	E6SM	>100 µg/mL
CC(C)[C@H](NC(=O)CN)C(=O)OCC(COC(=O)[C@@H](NC(=O)CN)C(C)C)OCn1cnc2c(=O)[nH]c(N)nc21	plaque count	-	HFF	0.5 µM
Nc1nc(Cl)c2ncn(/C=C3/C[C@H]3CO)c2n1	cytopathic effect	-	HFF	76.4 µM
Nc1nc2c(ncn2COC(CO)CO)c(=O)[nH]1	cytopathic effect	-	VERO	1.4 µg/mL
C/C(=C\Cn1ccc(N)nc1=O)CO	-	-	-	>100 µg/mL
Nc1nc2c(ncn2CCC(CO)CO)c(=O)[nH]1	cytopathic effect	-	VERO	5.3 µg/mL
Nc1ncnc2c1ncn2C[C@H](O)CO	cytopathic effect	LYONS	PRK	>400 µg/mL
O=c1[nH]c(=O)n([C@H]2C[C@H](O)[C@@H](CO)O2)cc1I	cytopathic effect	196	PRK	1 µg/mL
CC1(C)[C@@H](CCO)C[C@H]1n1cnc2c(N)ncnc21	cytopathic effect	G	E6SM	100 µg/mL
Nc1ncnc2c1ncn2[C@@H]1O[C@H](CO)[C@@H](O)[C@@H]1O	plaque count	X-79	MEF	60 µM
CC(C)(C)[Si](C)(C)OC[C@H]1O[C@@H](n2ccc(=O)[nH]c2=O)[C@H](O[Si](C)(C)C(C)(C)C)[C@]12O[C@@H]2CO	plaque count	-	VERO	20 µM
Nc1ncnc2c1ncn2/C=C1/C[C@H]1CO	cytopathic effect	-	HFF	430 µM
CC(C)(C)[Si](C)(C)OC[C@H]1O[C@@H](n2ccc(=O)[nH]c2=O)[C@H](O[Si](C)(C)C(C)(C)C)[C@@]12O[C@H]2C(=O)NN	plaque count	-	VERO	30 µM
OC[C@H]1O[C@H](c2cc(F)c(F)cc2F)C[C@@H]1O	cytopathic effect	196	E6SM	>400 µg/mL
O=C(O)C(O[C@@H]1CC[C@H](n2cc(F)c(=O)[nH]c2=O)C1)P(=O)(O)O	cytopathic effect	G	HEL	>250 µM
CCCn1cc2c(=O)n(-c3ccccc3)nc-2c2ccc(-c3ccncc3)cc21	plaque count	-	VERO	>100 µg/mL
N#Cc1c([N+](=O)[O-])c(-c2ccccc2)n(COCCO)c1-c1ccccc1	plaque count	-	VERO	>300 µM
Nc1ccn(CC=C(CO)CO)c(=O)n1	-	-	-	>100 µg/mL
O=c1[nH]c(=O)n([C@H]2C[C@H](O)[C@@H](COP(=O)(O)O)O2)cc1I	cytopathic effect	LYONS	PRK	0.1 µg/mL
CCCCC(=O)OC[C@H]1O[C@@H](n2cnc3c(N)ncnc32)[C@@H](O)[C@@H]1O	plaque count	MS	MEF	27 µM
O=c1[nH]c(=O)n([C@H]2C[C@H](O)[C@@H](CO)O2)cc1/C=C/Br	cytopathic effect	HS-44 (TK-)	HEL	>150 µM
Cc1cn([C@@H]2C[C@H](OC(C(=O)O)P(=O)(O)O)[C@@H](O)[C@H]2O)c(=O)[nH]c1=O	cytopathic effect	G	HEL	>250 µM
COC(O)[C@@H]1OC12[C@@H](CO[Si](C)(C)C(C)(C)C)O[C@@H](n1cc(C)c(=O)[nH]c1=O)[C@@H]2O[Si](C)(C)C(C)(C)C	plaque count	-	VERO	>23 µM
C/C=C/Cc1cn([C@H]2C[C@H](O)[C@@H](CO)O2)c(=O)[nH]c1=O	cytopathic effect	3345	BHK-21	>100 µg/mL
Cn1cc(C(=O)NCc2ccc(Cl)cc2)c(=O)c2cc(CN3CCOCC3)ccc21	plaque count	L6262351 (WILD TYPE)	HFF	3.2 µM
Cc1cc([C@@H]2C[C@H](O)[C@@H](CO)O2)c(Cl)cc1F	cytopathic effect	LYONS	E6SM	>400 µg/mL

For reference, 4 entries again:

smiles,read by,strain or isolate,cells,result
Cc1cn([C@@H]2C[C@H](OC(C(=O)O)P(=O)(O)O)[C@@H](O)[C@H]2O)c(=O)[nH]c1=O,cytopathic effect,G,HEL,>250 µM
Nc1nc2c(ncn2CCC(CO)CO)c(=O)[nH]1,cytopathic effect,-,VERO,5.3 µg/mL
Nc1ncnc2c1ncn2/C=C1/C[C@H]1CO,cytopathic effect,-,HFF,430 µM
COC(=O)/C=C1/[C@@H](O[Si](C)(C)C(C)(C)C)[C@H](n2cc(C)c(=O)[nH]c2=O)O[C@@H]1CO[Si](C)(C)C(C)(C)C,plaque count,-,VERO,>35 µM